Test results: patent publication US20220347299A1, “FLUORESCENT SYSTEMS FOR BIOLOGICAL IMAGING AND USES THEREOF” (LIGHTOX LIMITED, priority 2019, published 2022)

Columns and labels:
HaCaT keratinocytes = assay: Co-staining with organelle markers, co-localisation (PCC); format: cell-based; settings: for average PCC Value with LysoTracker / average PCC Value with MitoTracker / average PCC Value with Nile Red / subcellular localisation in HaCaT keratinocytes (summary): HaCaT; for average PCC Value with LysoTracker / average PCC Value with MitoTracker / average PCC Value with Nile Red: 1 μM compound; for average PCC Value with LysoTracker / average PCC Value with MitoTracker / average PCC Value with Nile Red / co-localisation with Anti-lamin A/C (no PCC value): 30 minutes; for average PCC Value with LysoTracker: LysoTracker Red DND-99; for average PCC Value with MitoTracker: MitoTracker Deep Red; for subcellular localisation in HaCaT keratinocytes (summary): co-staining with organelle markers; for co-localisation with Anti-lamin A/C (no PCC value): fixed HaCaT, 5 μM compound in PBS, anti-lamin A/C antibody
Description: To study the localisation of compounds in biological cells, co-staining of compounds of formula I with specific organelle markers (fluorescent dyes and antibodies) within biological cells was conducted. The following compounds were studied: compounds 6, 7, 12, 13, 14 and 15. HaCaT keratinocyte cell lines were used for the following experimental procedures. The cells were incubated in cell culture media (94% Dulbecco's Modified Eagle Medium (DMEM), 5% Foetal Bovine Serum (FBS) and 1% Penicillin Streptomycin solution (Pen-Strep). The cells were plated in 8-well plates, at a concentration of 25,000 cells per ml. 200 μl of cell suspension was added to each well, and the cells were incubated for 2 days before staining and imaging was carried out. In order to visualise the mitochondria, cells were probed with the mitochondrial dye MitoTracker® Deep Red. Cells to be stained were incubated with 200 μl MitoTracker® Deep Red solution (200 nM MitoTracker® and 1 μM Formula I compound in cell culture media) per well (N=3) for 30 minutes. Nile Red was used to identify lipids within the cells. 200 μl Nile Red Lipophilic dye (10 μg/ml Nile Red and 1 μM Formula I compound in cell culture media) was added to each well (N=3) and incubated for 30 minutes. For the detection of lysosomes within the cells, LysoTracker® Red DND-99 dye was used. 200 μl LysoTracker® Red DND-99 (50 nM LysoTracker® and 1 μM Formula I compound solution in cell culture media) was added to each well (N=3) and incubated for 30 minutes. For visualisation of the endoplasmic reticulum (ER), cells were stained with BODIPY® ER-Tracker® Red. 200 μl BODIPY ER-Tracker® Red (1 μM BODIPY® and 1 μM Formula I compound solution in cell culture media) was added to each well (N=3) and incubated for 30 minutes. Following incubation, the cell culture media containing dye was removed, and cells were washed twice with 200 μl phosphate buffered saline (PBS). After washing, 200 μl PBS was added into each well for imaging. For visualisation of the nuclear lamina, cells were probed with an anti-lamin A/C antibody. The cells were plated on 22×22 mm cover slips (10,000 cells/ml) and incubated for 2 days before staining. The cells were washed with PBS to remove excess media before staining. The cells were fixed with 4% paraformaldehyde (PFA) for 10 minutes at room temperature, before being washed twice in PBS for 5 minutes. Following washing, the cells were permeabilised in 0.4% Triton X-100 in PBS for 10 minutes. The cells were subsequently washed three times in PBS for 5 minutes, before being incubated in blocking buffer (1% BSA, 0.1% fish gelatine and 0.1% Triton X-100 in PBS) for 15 minutes at room temperature. The cells were incubated in primary antibody (mouse anti-lamin A/C IgG in blocking buffer) for 1 hour at room temperature. The cells were then washed twice in blocking buffer and incubated in secondary antibody (anti-mouse Alexa-594 IgG in blocking buffer) for 30 minutes at room temperature. Cells were washed twice in PBS for 10 minutes at room temperature. For cell staining with compounds of formula I, 5 μM of the compound of formula I in PBS was added to the cells for 30 minutes at room temperature. Cells were then washed five times for 5 minutes in PBS. Following washing, the cells were mounted onto non-charged microscopy slides using 6 μl Mowiol® per cover slip as mounting media. A Zeiss 880 confocal microscope was used for all the imaging work. [table] Image) Coloc2 software was used to calculate co-localization statistics between the compounds of formula I and the organelle marker images. The background was subtracted from each image and a region of interest (ROI) was used to target the analysis. The point spread function (PSF) of each image was calculated as 2.0 and Coastes' iterations was set to 100. The statistic quantified was the Pearson's Correlation Coefficient (PCC). PCC gives a number ranging from +1 to −1:1=perfect co-localisation; 0=no relationship; and, −1=perfect anti-co-localisation. […]

black-grass cells = assay: Labelling and confocal imaging of black-grass cell suspension culture; format: cell-based; settings: 1 μM, 1 h, room temperature; for subcellular localisation in black-grass cells: 405/460-540 nm

| Structure (SMILES) | average PCC Value with LysoTracker (HaCaT keratinocytes) | average PCC Value with MitoTracker (HaCaT keratinocytes) | average PCC Value with Nile Red (HaCaT keratinocytes) | subcellular localisation in HaCaT keratinocytes (summary) (HaCaT keratinocytes) | co-localisation with Anti-lamin A/C (no PCC value) (HaCaT keratinocytes) | subcellular localisation in black-grass cells (black-grass cells) | fluorescence signal in black-grass cells (black-grass cells) |
| --- | --- | --- | --- | --- | --- | --- | --- |
| COC(=O)/C=C/c1ccc(C#Cc2ccc(N3CCN(CCC[P+](c4ccccc4)(c4ccccc4)c4ccccc4)CC3)cc2)cc1.[Br-] [Compound 14, (3-{4-[4-(2-{4-[(1E)-3-methoxy-3-oxoprop-1-en-1-yl]phenyl}ethynyl)phenyl]piperazin-1-yl}propyl)triphenylphosphonium bromide] | 0.11 | 0.65 | 0.51 | localisation to the mitochondria and ER with some lipophilic staining | No Co- | label inner cell membrane as well as small vesicles | – |
| COC(=O)/C=C/c1ccc(C#Cc2ccc(N(C)CCN)cc2)cc1 [Compound 12, methyl (2E)-3-[4-(2-{4-[(2-aminoethyl)(methyl)amino]phenyl}ethynyl)phenyl]prop-2-enoate] | 0.73 | 0.14 | 0.37 | primarily localise to the lysosomes with some ER localisation and lipophilic staining present | No Co- | specifically label plasma membrane and cell plate | strong signal |
| COC(=O)/C=C/c1ccc(C#Cc2ccc(N(C)CCNS(=O)(=O)c3ccc(C)cc3)cc2)cc1 [Compound 15, methyl (2E)-3-{4-[2-(4-{methyl[2-(4-methylbenzenesulfonamido)ethyl]amino}phenyl)ethynyl]phenyl}prop-2-enoate] | 0.21 | 0.16 | 0.82 | primarily show lipophilic localisation | No Co- | label small vesicle in black-grass cells | – |
| COC(=O)/C=C/c1ccc(C#Cc2ccc(N3CCNCC3)cc2)cc1 [Compound 7, methyl (2E)-3-(4-{2-[4-(piperazin-1-yl)phenyl]ethynyl}phenyl)prop-2-enoate] | 0.75 | 0.12 | 0.39 | primarily shows localisation to the lysosomes with some localisation to the ER and Golgi apparatus and also shows some lipophilic staining | Co- | label the inner cell membrane; however, compound 7 showed a stronger signal in the cell vesicle (possibly lipid vesicle) | acceptable signal |
| CC(C)(C)OC(=O)/C=C/c1ccc(C#Cc2ccc(N3CCNCC3)cc2)cc1 [Compound 6, tert-butyl (2E)-3-(4-{2-[4-(piperazin-1-yl)phenyl]ethynyl}phenyl)prop-2-enoate] | 0.81 | 0.08 | 0.42 | primarily localise to the lysosomes with some ER localisation and lipophilic staining | Co- | – | – |
| COC(=O)/C=C/c1ccc(C#Cc2ccc(N3CCN(C(C)=O)CC3)cc2)cc1 [Compound 13, methyl (2E)-3-(4-{2-[4-(4-acetylpiperazin-1-yl)phenyl]ethynyl}phenyl) prop-2-enoate] | 0.22 | −0.35 | 0.00 | no detectable co-localisation with the organelle markers used | No Co- | – | – |
